Test [1] has as its target LptAm (E. coli), monomeric truncated variant of LptA (E. coli (ATCC 25922)). Briefly: fluorescence polarisation; indirect (competition) assay: unlabeled peptide or protein serially diluted into a 1:1 mixture of Lpt protein and 6-FL (2x stock 70 nM); 50 mM Na-Pi pH 7, 150 mM NaCl, 0.05% Tween 20; incubated overnight at 4°C, read at 25°C; triplicates; Ki from IC50 by Cheng-Prusoff.

For test [2], the target named is LptAm^Q62L (E. coli) (E. coli (ATCC 25922)). The test is described as above.

Results on 1 molecule are retold here after publication PMC10208570, “Peptidomimetic antibiotics disrupt the lipopolysaccharide transport bridge of drug-resistant Enterobacteriaceae” (Science Advances, 2023).

B1: LptC^AA (E. coli), periplasmic domain LptC(25-191) Y60A R61A (domain or fragment)
chain: GAEKDDTAQVVVNNNDPTYKSEHTDTLVYNPEGALSAALIAQHVEYYSDQAVSWFTQPVLTTFDKDKIPTWSVKADKAKLTNDRMLYLYGHVEVNALVPDSQLRRITTDNAQINLVTQDVTSEDLVTLYGTTFNSSGLKMRGNLRSKNAELIEKVRTSYEIQNKQTQP
Usually Ki stands for a measure of affinity in units of concentration, obtained from inhibition or displacement. With B1, the values for the Ki in test [1] and in test [2] were 1800 nM and 26.7 µM, respectively.
